{"source": "patent US9050376B2", "about": "(priority 2007, dated 2015)", "key": {"[1]": {"design": "species or system C57BL/6 mice", "details": "mouse, in vivo, iv"}, "B. anthracis": {"tested_on": "B. anthracis", "design": "species or system A/J mice", "details": "mouse, in vivo"}}, "data": [{"substance": "MSA: mouse serum albumin, carrier control [reference compound]", "values": [{"measurement": "serum cytokine levels", "setting": "[1]", "result": "little or no detectable cytokine levels"}, {"measurement": "effect on survival / protection", "setting": "B. anthracis", "result": "no significant difference"}]}]}
